Reference: article PMC3260234

Columns and labels:
[1] = biological target: T1, OxyS (Mycobacterium tuberculosis) (UniProt L7N677); experiment: EMSA; settings: 20 mM Tris-HCl pH 7.5, 100 mM NaCl, 2 mM EDTA, room temperature 20 min, recombinant protein, protein details: 6xHis (pET28a), probe letters rebuilt from the primers and the genome
T1 sequence (looked up, limits assumed): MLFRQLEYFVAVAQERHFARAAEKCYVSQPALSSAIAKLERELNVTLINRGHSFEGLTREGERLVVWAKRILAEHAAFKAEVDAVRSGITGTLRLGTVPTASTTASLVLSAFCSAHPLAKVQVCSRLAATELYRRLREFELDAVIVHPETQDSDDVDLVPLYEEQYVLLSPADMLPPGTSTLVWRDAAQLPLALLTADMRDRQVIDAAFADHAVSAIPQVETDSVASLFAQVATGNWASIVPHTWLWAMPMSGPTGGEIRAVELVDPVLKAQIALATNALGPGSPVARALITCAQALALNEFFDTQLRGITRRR

[2] = biological target: T1, OxyS (Mycobacterium tuberculosis); experiment: competition with a labelled probe; settings: 20 mM Tris-HCl pH 7.5, 100 mM NaCl, 2 mM EDTA, room temperature 20 min, recombinant protein, protein details: 6xHis (pET28a), probe letters rebuilt from the primers and the genome

Measured: binding result

AGCATTCCTTCCAGGAGTTGGTGTTATCGGGCTGTGATCACGGATGTGATCGCGAAGTGTCGGATATCGAACAATCAGGACATAGACCCCAGTAGATGACCTCCGCCTCGTCCAACAGGAAGCCGTTATGGTCCGAGGCCGTCAGACAGGGTGCCTCGCCAACAGCACAGTCGACATCGGCGATAACCCCGCAAGACCGGCAGACGATGTGATGGTGGTTGTCGCCGACCCTGGACTCGTAGCGCGCGACGGAGCCCGAGGGTTGGATCTTTCGCACCAAGCCCGCGGCGGTCAGGGCATGCAGCACGTCGTACACGGCTTGCCGGGATACGTCGGGCAGCGCAAAACGC (double strand) [katGp]
binds: [1]; 100-600 nM OxyS | [1]; DTT (no effect), 400 nM OxyS | [2]

The exact form of at least one protein or probe is not confirmed. For part of these data: At least one verdict was read from the data and is not stated in words by the source. Tags and fusion partners may be left off the protein sequences shown.
